Legend:
[1] = target: T1, MtbSenX3-mClover, unphosphorylated (M. tuberculosis, UniProt P9WGK5 67-410); test: MST
T1 sequence: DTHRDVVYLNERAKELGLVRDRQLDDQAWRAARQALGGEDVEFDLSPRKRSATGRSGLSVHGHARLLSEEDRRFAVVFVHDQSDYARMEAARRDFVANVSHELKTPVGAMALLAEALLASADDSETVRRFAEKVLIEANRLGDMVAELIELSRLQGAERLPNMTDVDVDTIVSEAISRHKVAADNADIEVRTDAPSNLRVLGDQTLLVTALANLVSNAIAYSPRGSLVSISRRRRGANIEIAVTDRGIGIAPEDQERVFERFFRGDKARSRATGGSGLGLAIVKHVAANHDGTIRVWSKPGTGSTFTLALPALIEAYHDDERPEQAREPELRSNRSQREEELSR

[2] = target: T2, MtbSenX3-mClover, phosphorylated (M. tuberculosis, UniProt P9WGK5 67-410, phosphorylated state of the SK (residue number not given)); test: MST
T2 sequence: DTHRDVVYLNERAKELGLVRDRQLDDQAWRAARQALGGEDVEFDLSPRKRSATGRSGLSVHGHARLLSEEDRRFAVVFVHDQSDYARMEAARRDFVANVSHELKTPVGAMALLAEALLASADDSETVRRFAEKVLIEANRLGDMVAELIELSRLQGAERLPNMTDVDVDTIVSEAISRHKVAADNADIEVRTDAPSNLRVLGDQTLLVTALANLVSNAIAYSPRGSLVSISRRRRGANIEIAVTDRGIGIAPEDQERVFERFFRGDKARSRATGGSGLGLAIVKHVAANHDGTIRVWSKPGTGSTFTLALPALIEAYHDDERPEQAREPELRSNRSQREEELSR

B1: M. tuberculosis MutT1 (MtbMutT1), wild type (enzyme)
chain: not shown
Kd [1]: 425 ± 130 nM | Kd [2]: 223 ± 98.2 nM
